Experimental findings from US10253035B2 (priority 2016, dated 2019) are described below.

Amino acid sequences for entries named in this document (tags omitted). Residues count along the entry.
UniProt P0A0C1, whole entry: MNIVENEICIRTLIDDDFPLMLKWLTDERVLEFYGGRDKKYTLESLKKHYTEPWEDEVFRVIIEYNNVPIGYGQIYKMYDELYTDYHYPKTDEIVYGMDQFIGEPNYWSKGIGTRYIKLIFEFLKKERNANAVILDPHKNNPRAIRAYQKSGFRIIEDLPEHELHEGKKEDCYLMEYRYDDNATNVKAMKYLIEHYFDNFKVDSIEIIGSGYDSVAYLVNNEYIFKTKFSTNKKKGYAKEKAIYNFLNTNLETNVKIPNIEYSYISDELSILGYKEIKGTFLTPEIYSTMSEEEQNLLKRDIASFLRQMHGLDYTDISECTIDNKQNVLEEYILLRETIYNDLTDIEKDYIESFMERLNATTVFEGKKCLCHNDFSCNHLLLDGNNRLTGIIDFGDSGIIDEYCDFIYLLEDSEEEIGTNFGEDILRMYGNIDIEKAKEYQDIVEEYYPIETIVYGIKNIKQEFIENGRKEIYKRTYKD
UniProt P9WQG9, whole entry: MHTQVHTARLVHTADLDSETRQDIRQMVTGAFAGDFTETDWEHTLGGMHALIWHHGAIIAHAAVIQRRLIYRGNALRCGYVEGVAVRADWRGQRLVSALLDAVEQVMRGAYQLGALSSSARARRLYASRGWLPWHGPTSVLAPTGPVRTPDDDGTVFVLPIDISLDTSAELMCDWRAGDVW
UniProt P9WFK7, 2-402 limits assumed: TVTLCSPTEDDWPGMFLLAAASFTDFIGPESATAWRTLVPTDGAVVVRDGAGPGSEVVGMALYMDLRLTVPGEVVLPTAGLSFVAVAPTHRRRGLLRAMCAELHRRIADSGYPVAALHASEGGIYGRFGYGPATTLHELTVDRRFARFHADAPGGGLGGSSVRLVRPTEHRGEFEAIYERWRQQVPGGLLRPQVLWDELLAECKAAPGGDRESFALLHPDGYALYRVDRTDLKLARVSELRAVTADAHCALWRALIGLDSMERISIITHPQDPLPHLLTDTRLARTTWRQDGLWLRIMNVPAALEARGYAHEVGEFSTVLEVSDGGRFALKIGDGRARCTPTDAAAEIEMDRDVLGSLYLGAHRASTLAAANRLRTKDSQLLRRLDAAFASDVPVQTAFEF

Test [1] deals with Mtb K204.
Test [2] relates to Mtb H37Rv.
The target in test [3] is AAC(6′)-Ie/APH(2″)-Ia (Staphylococcus aureus, UniProt P0A0C1). Description: Selectivity: KAN acetylation by AAC(6′)-Ie/APH(2″)-Ia.
Test [4] addresses AAC(2′)-Ic (Mycobacterium tuberculosis, UniProt P9WQG9).
The test system of test [5] is AAC(3)-IV. Description: Selectivity: KAN acetylation by AAC(3)-IV.
Test [6] concerns the target Eis_Mtb (Mycobacterium tuberculosis, UniProt P9WFK7). Description: Inhibition of Eis-catalyzed KAN acetylation by purified enzyme (IC50, UV-Vis assay). The class given is biochemical. As to conditions: Example 1, Table 1.
Where [7] appears, read: concentrations as high as 200 μM.

Molecules are shown by their SMILES. Like-named read-outs stand apart in the source and are kept apart here. A value given as a limit tells only on which side of the number the result lay.

In the case of `C=CCNC(=O)CNC1=NS(=O)(=O)C(c2ccc(C)c(C)c2)=C1C`, the “K204 MICKAN” value in test [1] (KAN MIC for K204 Mtb in the presence of compound at the specified concentration, Example 4) came to 10 µg/mL. The “H37Rv MICKAN” value in test [2] (KAN MIC for H37Rv Mtb in the presence of compound at the specified concentration, Example 4) was determined as 0.625 µg/mL.
Consider `CC1=C(c2ccc(Cl)cc2)S(=O)(=O)N=C1N1CCC(N2CCCCC2)CC1`, for which the “% activity” value in test [3] (acetylation activity of AAC(6′)-Ie/APH(2″)-Ia at 200 μM inhibitor relative to that without inhibitor) came to 75%; in test [4] (200 µM), 100%; in test [5] (AAC(3)-IV activity at 200 μM inhibitor relative to that without inhibitor), 100%. For the same compound, the “inhibition of KAN acetylation by AAC(6′)-Ie/APH(2″)-Ia (in words)” value in test [3] (setting [7]) was “no inhibition by either compound was observed”. For the same compound, the “inhibition of KAN acetylation by AAC(2′)-Ic (in words)” value in test [4] is “no inhibition by either compound was observed”. Also, the “inhibition of KAN acetylation by AAC(3)-IV (in words)” value in test [5] (setting [7]) is listed as “no inhibition by either compound was observed”.
Take `CC(C)(C)C(=O)CN1C(=O)C2(OCCO2)c2ccccc21`: the “K204 MICKAN” value in test [1] (activity of KAN against Mtb K204 with compound at concentration tested, Example 1, first of the two experiments printed) is ≥10, 10 μg/mL; in test [1] (activity of KAN against Mtb K204 with compound at concentration tested, Example 1, second of the two experiments printed) it was ≥10, 10 μg/mL. The same compound gave an IC50 in test [6] of more than 200 µM. Besides, in test [2] (activity of KAN against Mtb H37Rv with compound at concentration tested (100x IC50 or 100 μM), Example 1, two experiments), the “H37Rv MICKAN” value was not above 1.25 µg/mL.

The IC50 is the concentration needed to halve the response being measured. Lower therefore signals higher potency.
